pIC50: −log10 of the molar value.
Tested on: TBEV (Toro isolate)
Settings: Vero-B4 cells, MOI 0.01, 3 days, estimated by visual inspection

Q: Which “IC50 of the anti-viral activity, TBEV” value does the source give for `CC(C)C[C@@H]1NC(=O)[C@]23CSC[C@H](NC(=O)[C@H](C)NC(=O)[C@H](Cc4ccccc4)NC1=O)C(=O)N[C@H](C(=O)O)CSSC[C@H](NC(=O)[C@@H]1CSC[C@]4(C[C@H](N)C(=O)N[C@@H](CC(=O)O)C(=O)N[C@@H](Cc5c[nH]c6ccccc56)C(=O)N4)C(=O)N[C@@H](CC(C)C)C(=O)N[C@@H](Cc4c[nH]c5ccccc45)C(=O)N[C@@H](CCC(=O)O)C(=O)N1)C(=O)N[C@@H](C2)C(=O)N[C@@H]([C@@H](C)O)C(=O)NCC(=O)N3` [LabyA2, Labyrinthopeptin A2] here?
A: The value was > 50 µg/mL.

Q: What about the pIC50 (read-out: IC50 of the anti-viral activity, TBEV) of the same molecule?
A: The pIC50 was < 4.59.

Reference: US11331371B2, “Labyrinthopeptins as anti-viral agents” (Helmholtz-Zentrum Für Infektionsforschung GMBH, priority 2015, dated 2022)
